Data as given in PubChem BioAssay AID1224833 (University of Georgia, 2016).

Assay: 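Human genes whose knock-down alters rotavirus replication in monkey cells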 (primary screen)
Cells: monkey MA104 kidney cells
Reagent: siRNA pool against human genes, 50 nM
Duration: 48 h knock-down before infection; read 24 h after infection
Challenge: infection with rotavirus strain RV3 two days after transfection; infectious dose for this stage not given
Detection: 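Rotavirus antigen per well by fluorescent immunoassay, normalised to non-targeting control wells on each plate and given as a standard z-score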
Reading the numbers: z-score vs non-targeting control: higher = more rotavirus replication than with non-targeting control
Rule for the call: In these data the active calls have z-score vs non-targeting control at about -1 or lower, or at about 1 or higher
Calls: active = z-score beyond 1 either way; inactive = z-score within 1 of zero
The deposit covers about 12,000 reagents; below is a random part of them. About 5,600 of them (46%) were called active. 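Active calls cover z-scores past 1 in both directions, so they include lowered as well as raised rotavirus replication.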

Against LSM3, the entry reads z-score vs non-targeting control -1.1; active.
Knock-down of OR8K3 came out at: z-score vs non-targeting control -0.368; inactive.
Depletion of SNX13 resulted in: z-score vs non-targeting control -0.577; inactive.
After knock-down of KIF13A, the screen gave z-score vs non-targeting control -0.647; inactive.
With knock-down of MEIOC, the screen gave z-score vs non-targeting control -0.506; inactive.
With knock-down of APIP the results were z-score vs non-targeting control 1.6; active.
Against TLE2, the entry reads z-score vs non-targeting control -0.541; inactive.
After knock-down of SIX5, the record shows z-score vs non-targeting control 0.948; inactive.
Silencing of PRMT8 came out at: z-score vs non-targeting control -1.22; active.
SPINK9 gave z-score vs non-targeting control -1.52; active.
Against PXT1, the values are z-score vs non-targeting control 0.775; inactive.
For RTL4 the deposit lists z-score vs non-targeting control 1.02; active.
Knock-down of POLD1 resulted in: z-score vs non-targeting control -1.15; active.
Against SLC35B3 the deposit lists z-score vs non-targeting control -0.306; inactive.
CAMSAP2 scored z-score vs non-targeting control 0.89; inactive.
DPP4 showed z-score vs non-targeting control -1.23; active.
With knock-down of MMP3 the results were z-score vs non-targeting control 0.823; inactive.
CHD1L scored z-score vs non-targeting control 2.24; active.
With knock-down of RUNX3 the results were z-score vs non-targeting control -0.52; inactive.

2 entries already listed, sorted by “z-score vs non-targeting control”, highest first:
SIX5 → z-score vs non-targeting control: 0.948; outcome: inactive
TLE2 → z-score vs non-targeting control: -0.541; outcome: inactive
